Reference: PubChem BioAssay AID651820 (National Center for Advancing Translational Sciences (NCATS), 2012)
The entries are a selection whose mix differs from that of the whole data set. Inconclusive results are not listed. Some structures show a salt or complex split into parts, the way the source records it. Active and inactive are the calls of the source. Calls follow the shape of the dose curve; as a rule, active = well fitted inhibition curve with a large enough effect; inconclusive = small, poorly fitted or top-dose-only effect, or another doubt; inactive = no such curve, though single readings can be large or run the other way.
% is scaled to controls: 0 for no effect and ±100 for the full control effect.

Test: qHTS Assay for Inhibitors of Hepatitis C Virus (HCV)
Details: Huh7.5.1 HCVcc-Cre (HCVcc is cell-culture hepatitis C virus) infection, luciferase reporter, 44 h; at 41.8 µM (top of the series)
Text: Hepatitis C virus (HCV) infects about 200 million people in the world. Many infected people progress to chronic liver disease including cirrhosis with a risk of developing liver cancer. To date, there is no effective vaccine for hepatitis C. Current therapy based on interferon is only effective in about half of the patients and is associated with significant adverse effects. The fraction of people with HCV who can complete a successful treatment is estimated to be no more than 10 percent. Recent development of direct-acting antivirals against HCV, such as protease and polymerase inhibitors, is promising but still requires combination with peginterferon and ribavirin for maximal efficacy. In addition, these agents are associated with high rate of resistance and many have significant side effects. Due to the lack of a culture system for infectious HCV, the search for new HCV drugs has been greatly hampered. […] High-throughput screening (HTS) with an infectious HCV system would cover the complete spectrum of potentially druggable targets in all stages of HCV lifecycle, and would have more biological relevance than other cell-based assays. Moreover, targeting several key processes in the viral life cycle may not only increase antiviral efficacy; more importantly, it may also reduce the capacity of the virus to develop resistance to the compound. The goal of this project is to identify novel HCV inhibitors as new therapies for hepatitis C, using a highly sensitive and specific assay platform which is based on a HCV infectious cell culture system established in the laboratory and adapted for high-throughput HCV drug screen. NIH Chemical Genomics Center [NCGC] NIH Molecular Libraries Probe Centers Network [MLPCN] MLPCN Grant: MH095511 Assay Submitter (PI): Jake Liang, NIDDK
The assay will start with plating 1,000 cells/well in 3 µL volume and culture for 4 h. Then 23 nL of compounds from the library collection will be added to each well, followed by adding 2.5 µL of HCVcc-Cre virus (~ 0.5 moi) and further cultured for 44 h before the luciferase assay. A volume of 4.5 µL luciferase substrates will be added to each well and the plates will be incubated at room temperature for 15 min. and then read for 15 sec. for the luciferase activity
With `O=[N+]([O-])c1cc([N+](=O)[O-])c(OC2CCCCC2O)c([N+](=O)[O-])c1` (centres undefined) the activity change, negative = inhibition was inactive: 30.8%. With `O=C(OC1CN2CCC1CC2)c1ccc([N+](=O)[O-])cc1` (centres undefined) the activity change, negative = inhibition was inactive: 5.07%. With `COc1ccc2c(c1O)-c1c(O)c(OC)cc3c1[C@H](C2)[N+](C)(C)CC3.O=[N+]([O-])c1cc([N+](=O)[O-])c([O-])c([N+](=O)[O-])c1[O-]` the activity change, negative = inhibition was inactive: 9.67%. With `O=C1C(O)=C([N+](=O)[O-])C(=O)C(O)=C1[N+](=O)[O-]` the activity change, negative = inhibition was inactive: -1.23%. With `O=P1(N(CCCl)CCCl)SCCCS1` the activity change, negative = inhibition was inactive: 0.736%. In the case of `Cn1c(=O)[nH]cc(N(CCCl)CCCl)c1=O`, the activity change, negative = inhibition is reported as inactive: -18%. In the case of `O=C(O)c1cccc(Nc2c([N+](=O)[O-])cc([N+](=O)[O-])cc2[N+](=O)[O-])c1`, the activity change, negative = inhibition is reported as inactive: -12.7%. With `N/C(=N\O)c1c(N)no[n+]1[O-]` the activity change, negative = inhibition was inactive: -11.3%. In the case of `CCOC(=O)C(CC)C1=NC(C)(C)Cc2ccccc21.O=[N+]([O-])c1cc([N+](=O)[O-])c(O)c([N+](=O)[O-])c1` (centres undefined), the activity change, negative = inhibition is reported as inactive: 14.2%.
